Measured values from several laboratories, pooled; numbers as filed in NIAID ChemDB.

All rows: whole-cell or culture tests; organism: Mycobacterium tuberculosis

Inhibition is in % at the dose shown (toxicity tests: loss of growth or viability). MIC bound comes from a single tested concentration. MIC50, MIC90 and the like: level of inhibition, or share of isolates inhibited. ECn: concentration that inhibits the pathogen or its effect by n%. Blank or dashed fields: not listed here. Lines come from different laboratories, so protocols vary. a–b is a range or a potency band.

compound,cell line,endpoint,strain or isolate,method,tested at,mutations,setting,value
O=C(O)Cc1ccc(O)c2ncccc12,-,MIC50,H37Rv,-,-,-,-,0.1–0.5 µg/mL
O=C(CCC(F)(F)F)N1CCC(F)(c2ccnc(C(F)(F)F)c2)CC1,THP-1,EC50,H37Rv,fluorescence,-,-,-,<0.05 µM
Cc1ccc(CNC(=O)c2nnc(-c3ccccn3)[nH]c2=O)cc1,-,MIC,H37Rv,-,-,-,-,32 µg/mL
CC(C)N=c1cc2n(-c3ccc(Cl)cc3)c3ccccc3nc-2cc1Nc1ccc(Cl)cc1,-,MIC,234/2005,-,-,-,-,0.06 µM
Cc1cc(C)c(B2OB(c3c(C)cc(C)cc3C)O2)c(C)c1,-,MIC,H37Rv,BACTEC,-,-,-,≥12.5 µg/mL
CCSC(=O)c1ccco1,-,MIC,H37Rv,-,-,-,-,50 µg/mL
O=C(CCC(F)(F)F)N1CCC(c2cccnc2C(F)(F)F)CC1,THP-1,EC50,H37Rv,fluorescence,-,-,-,1–10 µM
CCSC1=CSCN1,-,MIC,H37Rv,-,-,-,-,50 µg/mL
Cc1cn2c(C(=O)NCc3ccc(C(F)(F)F)cc3)c(C)nc2s1,-,MIC,H37Rv,resazurin / fluorescence,-,QCrb2 M342T,-,4.7 µM
Cc1nc2scc(-c3ccco3)c2c(=O)n1/N=C/c1ccc(F)cc1F,-,MIC,CNCTC MY331/88,-,-,-,-,5 µM
C=S(=C)(Nc1ccc(-c2csc(N3C(=O)/C(=C/c4ccccc4[N+](=O)[O-])N=C3c3ccccc3)n2)cc1)c1ccc(OC)c(Cl)c1,-,MIC bound,H37Rv,resazurin,-,-,-,>6.25 µg/mL
NNC(=O)c1ccncc1,-,MIC,H37Rv,luminescence,-,-,-,0.62 µM
Cc1c2c(c(C)c3c1[nH]c1ccccc13)C(C#N)N(C(=O)c1ccccc1)C=C2,-,MIC bound,H37Rv,resazurin,-,-,-,<6.25 µg/mL
Oc1c(Br)cc(Br)c2cccnc12,-,MIC50,M 607,-,-,-,-,>25 µg/mL
CCN(CC)C(=O)C1=C(C)NC(C)=C(C(=O)OCc2ccccc2)C1c1ncc([N+](=O)[O-])n1C,-,MIC,H37Rv (ATCC 27294),-,-,-,-,0.001 µM
COc1ccc(CC2C3=C(CCCC3)CCN2c2c([N+](=O)[O-])cc3c(=O)c(C(=O)O)cn(C4CC4)c3c2C)cc1,-,MIC,H37Rv,-,-,-,-,2.96 µM
Cc1nc2scc(-c3ccco3)c2c(=O)n1NC(=O)c1ccc(F)cc1F,-,MIC,CNCTC MY331/88,-,-,-,-,4 µM
CC12CCC3C(CCC4(O)C=CCCC34C=O)C1(O)CC(O)C2c1ccc(=O)oc1,-,inhibition,H37Rv,BACTEC,12.5 µg/mL,-,-,-2%
CC1=C(C(=O)Nc2cccc([N+](=O)[O-])c2)C(c2ccccc2Cl)C(C(=O)Nc2cccc([N+](=O)[O-])c2)=C(C)N1,-,inhibition,H37Rv,-,2.5 µg/mL,-,-,97%
Cc1c(N2CCN(Cc3ccc4c(c3)OCO4)CC2)c([N+](=O)[O-])cc2c(=O)c(C(=O)O)cn(C3CC3)c12,-,MIC,H37Rv,-,-,-,-,0.77 µM
O=[N+]([O-])c1ccccc1C1N2CCCCC2[C@@H]2c3[nH]c4ccccc4c3CCN12,-,inhibition,H37Rv,resazurin,6.25 µg/mL,-,-,29%
Cc1nc2scc(-c3ccco3)c2c(=O)n1/N=C/c1ccco1,-,MIC,CNCTC MY331/88,-,-,-,-,52 µM
O=C(NCc1cccc([N+](=O)[O-])c1)c1nnc(-c2ccccn2)[nH]c1=O,-,MIC,H37Rv,-,-,-,-,>32 µg/mL
COc1ccc(CN2CCCN(Cc3ccc(OC)cc3OC)C2c2ccc(N(C)C)cc2Cl)c(OC)c1,-,MIC bound,H37Rv,BACTEC,-,-,-,>12.5 µg/mL
Cc1csc(C(C)(O)c2nnc(Nc3ncn(Cc4c(F)cccc4F)n3)s2)n1,-,MIC,G96V,-,-,-,-,>25 µM
CCn1cc(C(=O)O)c(=O)c2cc(F)c(N3CCN(CC(=O)c4ccc(OC)cc4)CC3)c(F)c21,-,inhibition,H37Rv,BACTEC,6.25 µg/mL,-,-,29%
Cc1ccc(Cn2nnc(-c3cc([N+](=O)[O-])cc([N+](=O)[O-])c3)n2)cc1,-,MIC,Praha 131,-,-,-,21 d,0.125 µM
Cc1nc2scc(-c3ccco3)c2c(=O)n1/N=C/c1ccccc1,-,MIC,CNCTC MY331/88,-,-,-,-,50 µM
CC1=C(C(=O)Nc2ccccc2Cl)C(c2ccccc2O)C(C(=O)Nc2ccccc2Cl)=C(C)N1,-,inhibition,H37Rv,-,2.5 µg/mL,-,-,6%
Cc1ccc(S(=O)(=O)NNC(=O)C2(C)CC2(C)C(=O)O)cc1,-,MIC bound,H37Rv,BACTEC,-,-,-,>12.5 µg/mL
COc1cccc(CNC(=O)c2c(C)nc3sc(C)cn23)c1,-,MIC,H37Rv,resazurin / fluorescence,-,-,-,1.12 µM
CCOC(=O)C(C)c1nc2cc(F)c(F)cc2[nH]c1=O,-,MIC bound,H37Rv,BACTEC,-,-,-,>6.25 µg/mL
O=C(O)c1cn(-c2ccc([N+](=O)[O-])cc2F)c2cc(N3CCNCC3)c(F)cc2c1=O,-,inhibition,H37Rv,BACTEC,6.25 µg/mL,-,-,37%
Cc1cn2c(C(=O)NCc3ccc(N4CCC(Oc5cccc(C(F)(F)F)c5)CC4)c(F)c3)c(C)nc2s1,-,MIC,H37Rv,resazurin / fluorescence,-,-,-,<0.39 µM
CO[C@H]1/C=C/O[C@@]2(C)Oc3c(C)c(O)c4c(O)c(c5c(c4c3C2=O)NC2(CCN(CC(C)C)CC2)N=5)=NC(=O)/C(C)=C\C=C\[C@H](C)[C@H](O)[C@@H](C)[C@@H](O)[C@@H](C)[C@H](OC(C)=O)[C@@H]1C,-,MIC,3181-5 (RIF-S),-,-,-,-,0.03 µg/mL
CCSC(=O)c1ccccc1,-,MIC,H37Rv,-,-,-,-,>100 µg/mL
CCCc1ccc(O)c2ncccc12,-,MIC50,M 607,-,-,-,-,25 µg/mL
CC/C(=C(\c1ccccc1)c1ccc(OCCN(C)C)cc1)c1ccccc1,-,MIC,H37Rv,resazurin,-,-,-,3.125–6.25 µg/mL
CN1C(=O)C23SSC1(C)C(=O)N2c1ccccc1C3(C)C,-,MIC bound,H37Rv,BACTEC,-,-,-,≤12.5 µg/mL
COc1ccccc1NC(=O)C1=C(C)NC(C)=C(C(=O)Nc2ccccc2OC)C1c1ccccc1Cl,-,EC50,H37Rv,-,-,-,-,>2.5 µg/mL
O=C(NCc1ccccc1Cl)c1nnc(-c2ccccn2)[nH]c1=O,-,MIC,H37Rv,-,-,-,-,>32 µg/mL
O=C(CCC(F)(F)F)N1CCC(c2cccc(Cl)n2)CC1,THP-1,EC50,H37Rv,fluorescence,-,-,-,0.05–0.25 µM
CCC(S)CC(=O)OC=O,-,MIC,H37Rv,-,-,-,-,5 µg/mL
CCCCc1ccc(O)c2ncccc12,-,MIC50,M 607,-,-,-,-,10–25 µg/mL
CO[C@H]1/C=C/O[C@@]2(C)Oc3c(C)c(O)c4c(O)c(c(/C=N/N5CCN(Cc6ccccc6)CC5)c(O)c4c3C2=O)NC(=O)/C(C)=C\C=C\[C@H](C)[C@H](O)[C@@H](C)[C@@H](O)[C@@H](C)[C@H](OC(C)=O)[C@@H]1C,-,MIC,H37Rv,BACTEC,-,-,-,0.05 µg/mL
O=C(NCc1ccccc1Br)c1nnc(-c2ccccn2)[nH]c1=O,-,MIC,H37Rv,-,-,-,-,>32 µg/mL
CCN(CC)C(=O)C1=C(C)NC(C)=C(C(=O)OC)C1c1ncc([N+](=O)[O-])n1C,-,MIC,H37Rv (ATCC 27294),-,-,-,-,>0.5 µM
Cn1c(=O)nc2n(-c3ccc(Cl)cc3)c3ccc(Cl)cc3nc-2c1=O,-,inhibition,H37Rv,BACTEC,12.5 µg/mL,-,-,0%
Cc1c(N2CCN(C(=O)C3COc4ccccc4O3)CC2)c([N+](=O)[O-])cc2c(=O)c(C(=O)O)cn(C(C)(C)C)c12,-,MIC,H37Rv,-,-,-,-,>22.7 µM
Cc1nc2scc(-c3ccco3)c2c(=O)n1NC(=O)c1ccc(Cl)cc1Cl,-,MIC,CNCTC MY331/88,-,-,-,-,5 µM
Cc1cnc2c(O)cccc2c1,-,MIC50,M 607,-,-,-,-,5–10 µg/mL
Nc1ccc(-n2cc(C(=O)O)c(=O)c3cc(F)c(N4CCNCC4)cc32)c(F)c1,VERO,MIC,H37Rv,BACTEC,-,-,-,1.56 µg/mL
Cc1cn2c(C(=O)NCc3ccc(N4CCOCC4)c(F)c3)c(C)nc2s1,-,MIC,H37Rv,resazurin / fluorescence,-,QcrB4 A396T,-,0.15 µM
CCCCOC(=O)C1=C(C)NC(C)=C(C(=O)N(CC)CC)C1c1ncc([N+](=O)[O-])n1C,-,MIC,H37Rv (ATCC 27294),-,-,-,-,0.001 µM
CCOC(=O)NN(C(=O)OCC)C1CCN=C1C(=O)OC,-,inhibition,H37Rv,resazurin,6.25 µg/mL,-,-,-63%
COc1ccc(/C=N/n2c(C)nc3scc(-c4ccco4)c3c2=O)cc1,-,MIC,CNCTC MY331/88,-,-,-,-,15 µM
CCOC(=O)c1ccc2cccnc2c1O,-,MIC50,H37Rv,-,-,-,-,1 µg/mL
CO[C@H]1/C=C/O[C@@]2(C)Oc3c(C)c(O)c4c(O)c(c(/C=N/N5CCN(C)CC5)c(O)c4c3C2=O)NC(=O)/C(C)=C\C=C\[C@H](C)[C@H](O)[C@@H](C)[C@@H](O)[C@@H](C)[C@H](OC(C)=O)[C@@H]1C,-,MIC,G96V,-,-,-,-,0.01 µg/mL
CC1CCc2c(c(CC3CC(=O)NC(=O)C3)nn2-c2ccccc2)C1,-,MIC bound,H37Rv,resazurin,-,-,-,>6.25 µg/mL
O=Cc1ccc(O)c2ncccc12,-,MIC50,M 607,-,-,-,-,>25 µg/mL
CC1=Nc2cc(C)c(C)cc2N2C1=CC1=C(C(=O)c3cc4ccccc4cc3C1=O)C2C,-,MIC bound,H37Rv,BACTEC,-,-,-,>12.5 µg/mL
CO[C@H]1/C=C/O[C@@]2(C)Oc3c(C)c(O)c4c(O)c(c(/C=N/N5CCN(C)CC5)c(O)c4c3C2=O)NC(=O)/C(C)=C\C=C\[C@H](C)[C@H](O)[C@@H](C)[C@@H](O)[C@@H](C)[C@H](OC(C)=O)[C@@H]1C,-,MIC,7357/1998,-,-,-,-,>9.7 µM
O=C(O)CCCc1ccc(O)c2ncccc12,-,MIC50,H37Rv,-,-,-,-,5–10 µg/mL
COc1ccccc1C1OC2=Nc3cc(C)c(C)cc3NC2C1=O,-,inhibition,H37Rv,BACTEC,12.5 µg/mL,-,-,-19%
CCn1cc(C(=O)O)c(=O)c2cc(F)c(N3CCN(C/C(=N/O)c4ccccc4)CC3)cc21,-,inhibition,H37Rv,BACTEC,6.25 µg/mL,-,-,28%
COc1cncc(C2CCN(C(=O)CCC(F)(F)F)CC2)c1,THP-1,EC50,H37Rv,fluorescence,-,-,-,0.05–0.25 µM
O=C1Nc2cc(O)c(C(=O)O)cc2C1=O,-,MIC bound,H37Rv,BACTEC,-,-,-,>12.5 µg/mL
Cc1nc2scc(-c3ccco3)c2c(=O)n1NC(=O)C1CC1,-,MIC,CNCTC MY331/88,-,-,-,-,88 µM
CCN(CC)CCN1c2ccc(C)cc2Sc2ccc3ccccc3c21,VERO,MIC,H37Rv,-,-,-,-,6.25 µg/mL
CCOC(=O)C1=C(C)NC(C)=C(C(=O)N(CC)CC)C1c1ncc([N+](=O)[O-])n1C,-,MIC,H37Rv (ATCC 27294),-,-,-,-,0.25 µM
CCN(CC)CCNc1cc(C)nc2c1ccc1c2ccc2c(NCCN(CC)CC)cc(C)nc21,-,MIC bound,H37Rv,-,-,-,-,>6.25 µg/mL
CN1CCN(c2cc3c(cc2F)c(=O)c(C(=O)O)cn3-c2ccc(N)cc2)CC1,-,inhibition,H37Rv,BACTEC,6.25 µg/mL,-,-,84%
O=C(CCC(F)(F)F)N1CCC(c2ccnc(C(F)(F)F)c2)CC1,THP-1,EC50,H37Rv,fluorescence,-,-,-,<0.05 µM
NC(=O)N1C(=O)C2C3C=CC(O3)C2C1=O,-,MIC bound,H37Rv,BACTEC,-,-,-,>12.5 µg/mL
Cc1c(N2CCSCC2)c([N+](=O)[O-])cc2c(=O)c(C(=O)O)cn(-c3ccc(F)cc3F)c12,-,MIC,H37Rv,-,-,-,-,13.54 µM
CCOC(=O)c1cn(-c2ccc(N)cc2F)c2cc(N3CCNCC3)c(F)cc2c1=O,-,inhibition,H37Rv,BACTEC,6.25 µg/mL,-,-,13%
CC1=C(C(=O)Nc2ccc(Cl)cc2)C(c2ccc(O)cc2)C(C(=O)Nc2ccc(Cl)cc2)=C(C)N1,-,inhibition,H37Rv,-,2.5 µg/mL,-,-,79%
COC(=O)C1C(O)C(C)C(O)OC1C(C)C(O)C(C)C=CC=C(C)C(=O)Nc1c(C)c(OC(C)=O)c2c(c1O)C(=O)C(C)=C1OCOC(C(C)=CC(C)=O)=C12,-,MIC bound,H37Rv,BACTEC,-,-,-,≤128 µg/mL
CCC(=S)CC1C(=O)NC(=S)N1C(C)=O,-,MIC,H37Rv,-,-,-,-,>100 µg/mL
CCOC(=O)c1cn(-c2ccc(N)cc2F)c2cc(N3CCN(C)CC3)c(F)cc2c1=O,-,inhibition,H37Rv,BACTEC,6.25 µg/mL,-,-,0%
Cc1cc(N)c2ncccc2c1,-,MIC50,H37Rv,-,-,-,-,>10 µg/mL
Cc1nc2scc(-c3ccco3)c2c(=O)n1NC(=O)c1ccc(Cl)cc1,-,MIC,CNCTC MY331/88,-,-,-,-,16 µM

Again, the opening 6 rows:

compound,cell line,endpoint,strain or isolate,method,tested at,mutations,setting,value
O=C(O)Cc1ccc(O)c2ncccc12,-,MIC50,H37Rv,-,-,-,-,0.1–0.5 µg/mL
O=C(CCC(F)(F)F)N1CCC(F)(c2ccnc(C(F)(F)F)c2)CC1,THP-1,EC50,H37Rv,fluorescence,-,-,-,<0.05 µM
Cc1ccc(CNC(=O)c2nnc(-c3ccccn3)[nH]c2=O)cc1,-,MIC,H37Rv,-,-,-,-,32 µg/mL
CC(C)N=c1cc2n(-c3ccc(Cl)cc3)c3ccccc3nc-2cc1Nc1ccc(Cl)cc1,-,MIC,234/2005,-,-,-,-,0.06 µM
Cc1cc(C)c(B2OB(c3c(C)cc(C)cc3C)O2)c(C)c1,-,MIC,H37Rv,BACTEC,-,-,-,≥12.5 µg/mL
CCSC(=O)c1ccco1,-,MIC,H37Rv,-,-,-,-,50 µg/mL